# US8168193B2, “Molecules, compositions, methods and kits for applications associated with flaviviruses” (National University of Singapore, priority 2003, dated 2012)
# B1: Papain (protein, UniProt P00784 134-345, looked up)
# Papain: IPEYVDWRQKGAVTPVKNQGSCGSCWAFSAVVTIEGIIKIRTGNLNEYSEQELLDCDRRSYGCNGGYPWSALQLVAQYGIHYRNTYPYEGVQRYCRSREKGPYAAKTDGVRQVQPYNEGALLYSIANQPVSVVLEAAGKDFQLYRGGIFVGPCGNKVDHAVAAVGYGPNYILIKNSWGTGWGENGYIRIKRGTGNSYGVCGLYTSSFYPVKN
# notes: Papain (EC 3.4.22.2) from Carica papaya, a cysteine endopeptidase
# Test system: 105-kDa cell receptor protein
# Test: Virus Overlay Protein Binding Assay (VOPBA) on Vero plasma membrane proteins
# Details: Vero cells, papain 50 mU/ml, without cycloheximide
molecule,measurement,value
B1,time for virus binding to the 105-kDa protein to reach its original level after removal of the protease,≤ 4 h
